Consider 15 compounds from patent EP4821928A1, “BICYCLIC HETEROCYCLIC COMPOUND AND FUNGICIDE FOR AGRICULTURAL AND HORTICULTURAL USE CONTAINING SAME AS ACTIVE INGREDIENT” (dated 2026).

Assay [1] concerns Anthracnose fungus (Glomerella cingulata). The experiment in a line: Anthracnose anti-germ test (Test Example E). The settings on record: 50 ppm/well; Czapek-dox broth; 25°C for 3 days; absorbance 600 nm. On the procedure: (§1) The prepared spore suspension was seeded at 100 µl/well to a 96-well multiplate. In the test, each compound was dissolved in a dimethyl sulfoxide-methanol mixed solution (volume ratio: 9/1) and dispensed at 50 ppm/well. The absorbance of each well was measured at a wavelength of 600 nm using a photometer. The multiplate was incubated at 25°C for 3 days, followed by absorbance measurement again. The difference in absorbance between the treatment day and 3 days later was calculated, and the rate of inhibition was calculated from the ratio between the treatment group and the non-treatment group.

For assay [2], the system named is Gray mold fungus (Botrytis cinerea). The assay is described as follows: Gray mold anti-germ test (Test Example C). The settings on record: for Gray mold anti-germ test (rate of inhibition): 50 ppm/well, Czapek-dox broth, 25°C for 3 days, absorbance 600 nm; for rate of inhibition (Test Example C): Gray mold fungus (Botrytis cinerea) anti-germ test. The procedure: as §1, with “Gray mold fungus (Botrytis cinerea) Conidia were suspended in Czapek-dox broth and a suspension of 1 × 10^5 spores were prepared. The prepared” for “The prepared”

In a further assay the test system is Magnaporthe grisea. The assay is described as follows: Rice blast disease pot test (Test Example A). The settings on record: 250 ppm sprayed, 2.5 ml/pot; rice variety Sachikaze; degree of disease development 6 to 8 days after inoculation. The procedure:
Seeds of test plants (rice variety: Sachikaze) were planted and then cultivated until the second leaves appeared. In the test, each synthesized compound was dissolved in a dimethyl sulfoxide-methanol mixed solution (volume ratio: 9/1) and diluted into a concentration of 250 ppm with ion exchange water to obtain a chemical. The obtained chemical was sprayed to the test plants (2.5 ml/pot). After drying of the chemical, the plants were inoculated by spraying of 3 to 5 × 10^4 organisms/ml of a conidium suspension of Magnaporthe grisea. The plants thus inoculated were left at room temperature of 23 to 25°C in a moist chamber for approximately 24 hours to promote the onset of the disease. The degree of disease development was investigated 6 to 8 days after inoculation, and effects of the chemical were evaluated.
(§2) The degrees of disease development in these Test Examples were evaluated by 0.05 when the degree of disease development in a plant having no onset of the disease was defined as 0 and the degree of disease development in a plant in a group without chemical treatment was defined as 3. From the degree of disease development, a control value was calculated according to the following expression.
(§3) Control value = 100{1−(n/3)} [formula] N = Degree of disease development in each chemical treatment group.

In assay [3] the test system is Fusarium blight fungus (Fusarium graminearum). The experiment in a line: Fusarium blight anti-germ test (Test Example D). The settings on record: for Fusarium blight anti-germ test (rate of inhibition): 50 ppm/well, Czapek-dox broth, 25°C for 3 days, absorbance 600 nm; for rate of inhibition (Test Example D): Fusarium blight fungus (Fusarium graminearum) anti-germ test. On the procedure:
as §1, with “Fusarium blight fungus (Fusarium graminearum) Conidia were suspended in Czapek-dox broth and a suspension of 1 × 10^5 spores were prepared. The prepared” for “The prepared”

The test system of the next assay is Botrytis cinerea. The assay is described as follows: Tomato gray mold pot test (Test Example B). The settings on record: 250 ppm sprayed, 2.5 ml/pot; tomato variety Oogata Fukuju; degree of disease development 2 to 3 days after inoculation. On the procedure: Seeds of test plants (tomato variety: Oogata Fukuju) were planted and then cultivated until three first leaves appeared. In the test, each compound was dissolved in a dimethyl sulfoxide-methanol mixed solution (volume ratio: 9/1) and diluted into a concentration of 250 ppm with ion exchange water to obtain a chemical. The obtained chemical was sprayed to the test plants (2.5 ml/pot). After drying of the chemical, the plants were inoculated by spraying of 3 to 6 × 10^5 organisms/ml of a conidium suspension of Botrytis cinerea. The plants thus inoculated were left at room temperature of 23 to 25°C in a moist chamber for approximately 48 hours to promote the onset of the disease. The degree of disease development was investigated 2 to 3 days after inoculation, and effects of the chemical were evaluated.
as §2, §3

The subject of assay [4] is Speckled leaf blotch fungus (Septoria tritici). The experiment in a line: Speckled leaf blotch anti-germ test (Test Example F). The settings on record: 50 ppm/well; Czapek-dox broth; 25°C for 3 days; absorbance 600 nm. On the procedure:
as §1, with “Speckled leaf blotch fungus (Septoria tritici) Conidia were suspended in Czapek-dox broth and a suspension of 1 × 10^5 spores were prepared. The prepared” for “The prepared”

For the compound `COc1cccc2c1OC(C)(C)N=C2n1cnc2c(C)cccc21`, the “Anthracnose anti-germ test (rate of inhibition)” value in assay [1] is recorded as “H (H represents a control value or rate of inhibition of larger than 50%)”. The “Gray mold anti-germ test (rate of inhibition)” value in assay [2] is listed as “H (H represents a control value or rate of inhibition of larger than 50%)”. In addition, the “Rice blast disease pot test (control value)” value (shortened to “Rice blast disease pot test”) in the assay with Magnaporthe grisea is reported as “H (H represents a control value or rate of inhibition of larger than 50%)”. Also, in assay [3], the “Fusarium blight anti-germ test (rate of inhibition)” value is given as “L (L represents a control value or rate of inhibition of 50% or less)”. The “Tomato gray mold pot test (control value)” value (from here on “Tomato gray mold pot test”) in the assay on Botrytis cinerea is “H (H represents a control value or rate of inhibition of larger than 50%)”. Also, the “Speckled leaf blotch anti-germ test (rate of inhibition)” value in assay [4] was “H (H represents a control value or rate of inhibition of larger than 50%)”.

As for `Cc1cnc2c(ncn2C2=NC(C)(c3ccccc3)Oc3c(F)cccc32)c1C` (stereo not shown), the “rate of inhibition (Test Example C)” value in assay [2] is listed as “H (H represents a control value or rate of inhibition of larger than 50%)”. Moreover, the “rate of inhibition (Test Example D)” value in assay [3] is listed as “H (H represents a control value or rate of inhibition of larger than 50%)”.

For `Cc1ccc2c(c1)OC(C)(C)N=C2n1cnc2c(C)c(Cl)ccc21`, the “Anthracnose anti-germ test (rate of inhibition)” value in assay [1] is “H (H represents a control value or rate of inhibition of larger than 50%)”.

With `Cc1c(Cl)cnc2c1ncn2C1=NC(C)(c2ccccc2F)Oc2c(Cl)cccc21` (stereo not shown), the “rate of inhibition (Test Example C)” value in assay [2] was “H (H represents a control value or rate of inhibition of larger than 50%)”. In addition, in assay [3], the “rate of inhibition (Test Example D)” value is “H (H represents a control value or rate of inhibition of larger than 50%)”.

For `Cc1ccc2c(c1)OC(C)(C(C)(C)C)N=C2n1cnc2c(C)c(C)ccc21` (stereo not shown), the “Gray mold anti-germ test (rate of inhibition)” value in assay [2] is on record as “H (H represents a control value or rate of inhibition of larger than 50%)”. The “Rice blast disease pot test” value in the assay with Magnaporthe grisea is on record as “L (L represents a control value or rate of inhibition of 50% or less)”. In addition, in assay [3], the “Fusarium blight anti-germ test (rate of inhibition)” value is “L (L represents a control value or rate of inhibition of 50% or less)”. The “Tomato gray mold pot test” value in the assay on Botrytis cinerea was “H (H represents a control value or rate of inhibition of larger than 50%)”. In addition, in assay [4], the “Speckled leaf blotch anti-germ test (rate of inhibition)” value is “L (L represents a control value or rate of inhibition of 50% or less)”.

Consider `Cc1cccc2c1OC(C)(C)N=C2n1cnc2c(C3CC3)cccc21`, for which, in assay [2], the “Gray mold anti-germ test (rate of inhibition)” value was “L (L represents a control value or rate of inhibition of 50% or less)”. Besides, in the assay with Magnaporthe grisea, the “Rice blast disease pot test” value is “H (H represents a control value or rate of inhibition of larger than 50%)”. The “Fusarium blight anti-germ test (rate of inhibition)” value in assay [3] is “L (L represents a control value or rate of inhibition of 50% or less)”. The “Tomato gray mold pot test” value with Botrytis cinerea is “H (H represents a control value or rate of inhibition of larger than 50%)”. Also, the “Speckled leaf blotch anti-germ test (rate of inhibition)” value in assay [4] was “H (H represents a control value or rate of inhibition of larger than 50%)”.

On to `Cc1cccc2c1OC(C)(C)N=C2c1cnn2c(C)c(C)cnc12`, for which the “Gray mold anti-germ test (rate of inhibition)” value in assay [2] is listed as “H (H represents a control value or rate of inhibition of larger than 50%)”. For the same compound, the “Fusarium blight anti-germ test (rate of inhibition)” value in assay [3] is “H (H represents a control value or rate of inhibition of larger than 50%)”. Further, the “Speckled leaf blotch anti-germ test (rate of inhibition)” value in assay [4] was “H (H represents a control value or rate of inhibition of larger than 50%)”.

As for `CCN(C)c1ccc2c(c1)OC(C)(C)N=C2n1cnc2c(C)c(C)ccc21`, the “Gray mold anti-germ test (rate of inhibition)” value in assay [2] is listed as “H (H represents a control value or rate of inhibition of larger than 50%)”. Besides, the “Rice blast disease pot test” value with Magnaporthe grisea is listed as “H (H represents a control value or rate of inhibition of larger than 50%)”. Further, in assay [3], the “Fusarium blight anti-germ test (rate of inhibition)” value is “H (H represents a control value or rate of inhibition of larger than 50%)”. Moreover, the “Tomato gray mold pot test” value with Botrytis cinerea is “H (H represents a control value or rate of inhibition of larger than 50%)”. The “Speckled leaf blotch anti-germ test (rate of inhibition)” value in assay [4] is “H (H represents a control value or rate of inhibition of larger than 50%)”.

For the compound `Cc1cnc2c(ncn2C2=NC(C)(c3ccccc3F)Oc3c(Cl)cccc32)c1C` (stereo not shown), the “rate of inhibition (Test Example C)” value in assay [2] is on record as “H (H represents a control value or rate of inhibition of larger than 50%)”. Moreover, the “rate of inhibition (Test Example D)” value in assay [3] was “H (H represents a control value or rate of inhibition of larger than 50%)”.

Regarding `Cc1c(Cl)cnc2c1ncn2C1=NC(C)(c2ccccc2)Oc2c(F)cccc21` (stereo not shown), the “rate of inhibition (Test Example C)” value in assay [2] was “H (H represents a control value or rate of inhibition of larger than 50%)”. The “rate of inhibition (Test Example D)” value in assay [3] was “H (H represents a control value or rate of inhibition of larger than 50%)”.

`Cc1cccc2c1ncn2C1=NC(C)(C)[S+]([O-])c2c(F)cccc21` (stereo not shown): the “Gray mold anti-germ test (rate of inhibition)” value in assay [2] was “L (L represents a control value or rate of inhibition of 50% or less)”. The “Rice blast disease pot test” value in the assay on Magnaporthe grisea was “H (H represents a control value or rate of inhibition of larger than 50%)”. The “Fusarium blight anti-germ test (rate of inhibition)” value in assay [3] is “L (L represents a control value or rate of inhibition of 50% or less)”. Also, in the assay with Botrytis cinerea, the “Tomato gray mold pot test” value is “H (H represents a control value or rate of inhibition of larger than 50%)”. For the same compound, the “Speckled leaf blotch anti-germ test (rate of inhibition)” value in assay [4] is “L (L represents a control value or rate of inhibition of 50% or less)”.

For `Cc1c(Br)cnc2c1ncn2C1=NC(C)(c2ccccc2F)Oc2c(Cl)cccc21` (stereo not shown), in assay [2], the “rate of inhibition (Test Example C)” value is “H (H represents a control value or rate of inhibition of larger than 50%)”. Besides, the “rate of inhibition (Test Example D)” value in assay [3] is reported as “H (H represents a control value or rate of inhibition of larger than 50%)”.

For `Cc1ccnn2c(C3=NC(C)(c4cccc(F)c4)Oc4c(Cl)cccc43)cnc12` (stereo not shown), the “rate of inhibition (Test Example C)” value in assay [2] was “H (H represents a control value or rate of inhibition of larger than 50%)”. Besides, the “rate of inhibition (Test Example D)” value in assay [3] is “H (H represents a control value or rate of inhibition of larger than 50%)”.

In the case of `Cc1c(Br)cnc2c1ncn2C1=NC(C)(c2ccccc2)Oc2c(F)cccc21` (stereo not shown), in assay [2], the “rate of inhibition (Test Example C)” value was “H (H represents a control value or rate of inhibition of larger than 50%)”. In assay [3], the “rate of inhibition (Test Example D)” value was “H (H represents a control value or rate of inhibition of larger than 50%)”.

In the case of `Cc1ccc2c(c1)OC(C)(C)N=C2n1cnc2c(C3CC3)cccc21`, in assay [2], the “Gray mold anti-germ test (rate of inhibition)” value was “H (H represents a control value or rate of inhibition of larger than 50%)”. The “Rice blast disease pot test” value in the assay on Magnaporthe grisea is recorded as “L (L represents a control value or rate of inhibition of 50% or less)”. In assay [3], the “Fusarium blight anti-germ test (rate of inhibition)” value is “L (L represents a control value or rate of inhibition of 50% or less)”. The “Tomato gray mold pot test” value in the assay on Botrytis cinerea was “H (H represents a control value or rate of inhibition of larger than 50%)”. Further, in assay [4], the “Speckled leaf blotch anti-germ test (rate of inhibition)” value is “L (L represents a control value or rate of inhibition of 50% or less)”.
